Primary screen of a compound library

The values are deposited in ChEMBL (CHEMBL3988442, “University of Dundee, Small-Polar-MMV Screening Library” (2021)).

Mtb cholesterol medium: 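Growth of Mycobacterium tuberculosis over 4 days (cholesterol / DPPC medium with tyloxapol); the read-out is not stated. Tested at 500 µM. Higher reads as more growth inhibition (inferred: compounds with an IC50 in retests scored well above the rest). Of about 18,000 compounds tested this way, about 900 (5%) reached 50% or more in at least one test.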
Mtb glucose medium: 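Phenotypic screen: M. tuberculosis growth, glucose 7H9 medium, 3 days; the read-out is not stated. Tested at 500 µM. Higher reads as more growth inhibition (inferred: compounds with an IC50 in retests scored well above the rest). Of about 18,000 compounds tested this way, about 1,400 (7.9%) reached 50% or more in at least one test.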

The filed quantity is “Percent Effect” (%).
The record does not define 0% and 100%; most values in the screen are far below 50% and negative numbers occur (in some assays of this library far below -100).
This is part of a subset picked to be rich in strong results.
A dash means the value is not listed here; it may have been measured.

| Compound | Mtb cholesterol medium | Mtb glucose medium |
|---|---|---|
| `O=C(NC1CCCOc2ccccc21)c1ccncc1` (stereo not shown) | - | 51.07 |
| `CC(C)(C)C(CCO)NC(=O)c1ccsc1` (stereo not shown) | -7.688 | - |
| `CC1CN(Cc2ccccc2)CC1=O` (stereo not shown) | 27.38 | - |
| `Cc1cc(N(C)C(=O)C(C)N)ccc1Br` (stereo not shown) | 17.36 | - |
| `Cc1n[nH]/c(=N\C(=O)c2csc(NC3CC3)n2)s1` | 9.231 | 4.965 |
| `CC(C)NC(=O)C(C)S(=O)(=O)Cc1ccccc1` (stereo not shown) | - | 22.85 |
| `CNCc1cscn1` | - | 20.9 |
| `Cc1nc[nH]c1CN1CCCOC(CN2CCCC2)C1` (stereo not shown) | - | -9.019 |
| `Cc1nc(O)cc(CNC(=O)c2ncc(F)cc2F)n1` | - | -0.7563 |
| `Cn1nccc1CNS(=O)(=O)c1nccs1` | -4.627 | - |
| `CC(C)SCC(=O)N(C)C(C)c1ccncc1` (stereo not shown) | 17.4 | - |
| `Cc1nccc(CN)n1` | - | 4.468 |
| `O=C1COCC2(CC2)N1` | 3.331 | - |
| `Cc1ccnc(NC(=O)CC(C)C)c1` | -4.29 | - |
| `CC(Nc1ccn(CC(F)(F)F)n1)C(=O)N1CCCC1` (stereo not shown) | -3.277 | 1.317 |
| `CCCC(O)CNS(=O)(=O)c1ccc(C(=O)NC)cc1` (stereo not shown) | - | 12.95 |
| `CN(C)C(=O)CC1CCNCC1` | - | 4.997 |
| `NCCc1ccnc(N)c1` | 1.615 | - |
| `CC(C)N(CC(C)(C)O)C(=O)NCC1CCCO1` (stereo not shown) | - | -1.045 |
| `O=C(C1Cc2cc(Cl)ccc2O1)N1CCOCC1` (stereo not shown) | - | 51.07 |
| `CC(O)CN1CCN(c2ncnc3c2CCC3)CC1` (stereo not shown) | - | 5.911 |
| `O=C(Nc1ccncc1)N(CCO)CC1CC1` | - | 19.86 |
| `COCCCOc1cc(C)ccc1CN` | - | -4.422 |
| `CN(CCC#N)C(=O)CN1C(=O)c2ccccc2C1=O` | -8.831 | -9.36 |
| `COc1ccc(NC(=O)NC2CCC(O)CC2)cc1` (stereo not shown) | -1.051 | - |
| `CC(C)C(NC(=O)CS(C)(=O)=O)c1ccccn1` (stereo not shown) | - | 14.45 |
| `COc1ccccc1NC(=O)CN1CCCC(OC)C1` (stereo not shown) | - | 46.67 |
| `CN(Cc1ccc(-n2cccn2)cc1)C(=O)[C@@H]1CCN1` | - | 27.53 |
| `CC(C)c1cccc(Cn2cc(F)ccc2=O)n1` | -9.556 | 4.435 |
| `Cc1cc(C(=O)NCC2CCCCC(=O)N2)n(C)n1` (stereo not shown) | - | -8.515 |
| `COCCC1(CO)CCCN(Cc2c(C)n[nH]c2C)C1` (stereo not shown) | - | 4.451 |
| `COc1cccc(C(=O)N2CCCNCC2)c1` | - | 3.875 |
| `CN(C)C(=O)c1cccc(CC#N)c1` | - | -11.31 |
| `CCNC(=O)c1ccc(CN)cc1` | 0.8182 | - |
| `CN(Cc1cc(=O)n2ccsc2n1)C1CCSCC1` | - | 16.18 |
| `O=C(NCC1(O)CCCc2ccccc21)c1csnn1` (stereo not shown) | - | 31.32 |
| `CSCC(=O)N1CC(C(N)=O)Oc2ccccc21` (stereo not shown) | - | 5.93 |
| `CCCS(=O)(=O)Nc1cccc2c1CCN2C` | - | 31.11 |
| `O=C(Cn1cccnc1=O)N1[C@H]2CCNC[C@@H]1CC2` | - | 27.57 |
| `O=C1NCCNC1c1ccccc1Cl` (stereo not shown) | - | 3.9 |
| `OC1CCN(Cc2nnnn2-c2ccccc2Br)CC1` | 33.36 | - |

The last 4 entries again:

Compound,Mtb cholesterol medium,Mtb glucose medium
CCCS(=O)(=O)Nc1cccc2c1CCN2C,-,31.11
O=C(Cn1cccnc1=O)N1[C@H]2CCNC[C@@H]1CC2,-,27.57
O=C1NCCNC1c1ccccc1Cl (stereo not shown),-,3.9
OC1CCN(Cc2nnnn2-c2ccccc2Br)CC1,33.36,-